According to paper PMC9239237, “Salmonella Facilitates Iron Acquisition through UMPylation of Ferric Uptake Regulator” (mBio, 2022):

Molecular target: T1, UMPylated Fur (Escherichia coli K-12 substrain MG1655) (UniProt P0A9A9)
T1 sequence (looked up, limits assumed): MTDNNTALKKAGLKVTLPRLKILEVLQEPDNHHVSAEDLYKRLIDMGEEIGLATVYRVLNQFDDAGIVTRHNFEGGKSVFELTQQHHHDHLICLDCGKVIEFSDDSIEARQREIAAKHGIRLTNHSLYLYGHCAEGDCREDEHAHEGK
Assay: EMSA
Conditions: no shift even at protein:DNA ratio above 4 (legend: up to 40 nmol protein to 10 nmol DNA), DNA annealed in 10 mM Tris-HCl pH 7.5, 150 mM NaCl, binding buffer not stated, 20 nM DNA, 37 C 10 min (Methods) vs 10 nmol DNA, 30 C 10 min (Fig. 4 legend), recombinant protein, protein details: His tag removed with PPase (pGL01)

GATAATGATAATGATAATGATAATGATAATGA (double strand) [Fur box DNA]
binding result: no binding

For at least one entry, the source does not settle the construct or the ends of the probe. No signal at the amounts used counts as a negative. Where a protein sequence is shown, tags need not be part of it.
